The target in this data set is T1, 6xHis-OxyR (Salmonella enterica serovar Typhi ISP1820) (UniProt Q8XF66).
T1 sequence: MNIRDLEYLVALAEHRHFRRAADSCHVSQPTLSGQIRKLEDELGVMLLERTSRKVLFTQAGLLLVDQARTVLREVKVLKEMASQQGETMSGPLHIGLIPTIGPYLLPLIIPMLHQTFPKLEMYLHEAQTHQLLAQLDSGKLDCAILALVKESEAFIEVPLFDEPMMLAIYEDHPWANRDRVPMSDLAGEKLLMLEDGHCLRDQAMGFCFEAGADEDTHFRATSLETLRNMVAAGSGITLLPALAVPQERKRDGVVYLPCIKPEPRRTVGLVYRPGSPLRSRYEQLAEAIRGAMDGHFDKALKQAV
In words: EMSA. The following applies: 10 nM probe, 0.1 and 3 ug protein, positive control, EMSA with 10 nM probe, 5% acrylamide gel, RedSafe stain, pH and temperature not given (as previously described, ref 27), recombinant protein, residues 1-305, protein details: 6xHis (N-terminal, pET14b), label: none, probe letters rebuilt from the primers and the genome. For orientation: In EMSA bound probe runs differently from free probe, usually more slowly.

Turning to “GTTGGAACCAAGATCCACACGAAGCTGGTTCGGCCACCAGTCGCGGCTGGCTGTCCCTGCGCCTGCGCTTCGGTCATGCCCCCCCTGATGGAAAGGACATTTTCCAGTGGATAACGTGTTATGGGTATCGTCGGTCGTGCTCATATCTCAGCTCCCTTTTAAAGTGTTACCGTTACGATATACACCAGGAGCAAATAGATATAGTTGAATTAATCCACAGATTCGATAGCTAATACCTTTTATATTTTTAGTTACAGAGATGTAGATCAATATGAGGTGTAATAAAGCTCCCGGCAGGGATCCCG (double strand) [pkatG (katG promoter)]”, the binding result was “binds”.

For the origin of these results see paper PMC12502779.
